Experimental data published in article PMC6838151 (Scientific Reports, 2019).

Test system: hASCs
Test: Confocal imaging of mitochondrial network (MitoRed) and F-actin (Phalloidin Atto 590) in hASCs
Assay type: cell-based, human
Settings: 20 µM, 24 h
Description: The mitochondrial network was visualized using MitoRed staining. After 24-hours treatment with either Ke, KeP or KeOP, the media were removed and replaced with MitoRed dye in 1:1000 dilution in fresh complete media. Cells were incubated for 30 minutes at 37 °C, then washed with Phosphate Buffered Saline (PBS), fixed with 4% paraformaldehyde (PFA) solution, washed three times and nuclei were counterstained with diamidino-2-phenylindole (DAPI).
In order to perform F-actin imaging, cells were fixed with 4% PFA solution, washed with PBS and then permeabilized using 0.5% TX-100 (incubation 15 minutes, room temperature). The cells were rinsed and incubated with Phalloidin-Atto 590 solution in PBS (dilution 1:1000) at 37 °C for 30 minutes in the dark. After washing, the cells were counterstained with DAPI.
Cells were observed and images were taken using confocal microscopy performed with a Leica TCS-SP8 laser scanning confocal microscope. Data were further processed with the use of ImageJ software.

SMILES: O=P(CN1CCN(c2ccc(OC[C@H]3CO[C@](Cn4ccnc4)(c4ccc(Cl)cc4Cl)O3)cc2)CC1)(c1ccccc1)c1ccccc1 (racemic) [KeOP, Ph2P(O)CH2-Ke]
- growth pattern (phalloidin staining): multilayer growth pattern
